In patent US12490739B2, “Synergistically effective fungicide composition comprising choline phosphonate and at least one additional fungicide” (BELCHIM CROP PROTECTION NV, priority 2019, dated 2025):

What was measured:
Sphaerotheca fuliginea = assay: Example 3 field trial, cucumber (Cucumis sativus var. Bosco) infected with powdery mildew, Italy; assay type: in vivo; conditions: 3500 g a.c./ha
Podosphaera leucotricha = assay: Example 13 field trials, apple (Malus domestica var. Gold Rush, var. Morgenduft Dallago) infected with powdery mildew; assay type: in vivo; conditions: 1948.15 g a.c./ha
Phytophthora infestans = assay: Example 11 potted potato plants (Solanum tuberosum L. var. Bintje) infected with late blight, Belgium; conditions: PESINC; 14 DA-A2; 3316 g a.c./ha
Venturia inaequalis = assay: Example 15 field trial, apple (Malus domestica var. Gala) infected with apple scab, France; assay type: in vivo; conditions: PESINC, 200 leaves, 3316 g a.c./ha
Uncinula necator = assay: Example 12 field trial, Vitis vinifera var. Carignan infected with powdery mildew, France; assay type: in vivo; conditions: 1740.9 g a.c./ha
Plasmopara viticola = assay: Example 6 field trials, Vitis vinifera infected with downy mildew; assay type: in vivo; conditions: 3250 g a.c./ha

Substance: choline phosphonate
- CP f.e. (%) (Sphaerotheca fuliginea; PESINC, 14 DA-A4, BBCH 78): 59.5%
- CP f.e. (%) (Sphaerotheca fuliginea; PESINC, 21 DA-A4, BBCH 79): 55.7%
- CP f.e. (%) (Sphaerotheca fuliginea; PESSEV curative, 7 DA-A2, BBCH 73): 88.6%
- CP f.e. (%) (Sphaerotheca fuliginea; PESSEV curative, 7 DA-A3, BBCH 76): 89.4%
- CP f.e. (%) (Sphaerotheca fuliginea; PESSEV curative, 7 DA-A4, BBCH 77): 89.9%
- CP f.e. (%) (Sphaerotheca fuliginea; PESSEV curative, 14 DA-A4, BBCH 78): 91.2%
- CP f.e. (%) (Sphaerotheca fuliginea; PESSEV, 7 DA-A2, BBCH 73): 92.5%
- CP f.e. (%) (Sphaerotheca fuliginea; PESSEV, 7 DA-A4, BBCH 77): 91.7%
- CP f.e. (%) (Sphaerotheca fuliginea; PESSEV, 14 DA-A4, BBCH 78): 89.0%
- CP f.e. (%) (Sphaerotheca fuliginea; PESSEV, 21 DA-A4, BBCH 79): 93.4%
- CP f.e. (%) (Podosphaera leucotricha; PESINC, location 1 (France), 20 shoots, 7 DA-A5, BBCH 71): 56.5%
- CP f.e. (%) (Podosphaera leucotricha; PESINC, location 1 (France), 100 leaves, 5 DA-A8, BBCH 74): 34.0%
- CP f.e. (%) (Podosphaera leucotricha; PESINC, location 1 (France), 100 leaves, 6 DA-A6, BBCH 74): 44.2%
- CP f.e. (%) (Podosphaera leucotricha; PESINC, location 1 (France), 100 leaves, 15 DA-A8, BBCH 76): 18.6%
- CP f.e. (%) (Podosphaera leucotricha; PESINC, location 2 (Italy), 5 leaves, 5 DA-A6, BBCH 74): 23.6%
- CP f.e. (%) (Podosphaera leucotricha; PESINC, location 2 (Italy), 40 shoots, 2 DA-A10, BBCH 74): 19.3%
- CP f.e. (%) (Podosphaera leucotricha; PESINC, location 2 (Italy), 40 shoots, 6 DA-A5, BBCH 71): 2.7%
- CP f.e. (%) (Podosphaera leucotricha; PESINC, location 2 (Italy), 40 shoots, 6 DA-A11, BBCH 74): 12.2%
- CP f.e. (%) (Podosphaera leucotricha; PESSEV, location 1 (France), 100 leaves, 6 DA-A6, BBCH 74): 53.1%
- CP f.e. (%) (Podosphaera leucotricha; PESSEV, location 1 (France), 100 leaves, 15 DA-A8, BBCH 76): 34.2%
- CP f.e. (%) (Podosphaera leucotricha; PESSEV, location 2 (Italy), 5 leaves, 2 DA-A10, BBCH 74): 37.7%
- CP f.e. (%) (Podosphaera leucotricha; PESSEV, location 2 (Italy), 5 leaves, 5 DA-A6, BBCH 74): 30.4%
- CP f.e. (%) (Podosphaera leucotricha; PESSEV, location 2 (Italy), 5 leaves, 6 DA-A11, BBCH 74): 14.1%
- CP f.e. (%) (Phytophthora infestans): 10.1%
- CP f.e. (%) (Venturia inaequalis; 28 DA-A12, BBCH 73): 67.7%
- CP f.e. (%) (Venturia inaequalis; 56 DA-A12, BBCH 75): 65.3%
- CP f.e. (%) (Uncinula necator; PESINC, 50 bunches, 14 DA-A3, BBCH 77): 3.8%
- CP f.e. (%) (Uncinula necator; PESINC, 50 bunches, 14 DA-A3, BBCH 77, second listing (r34)): 0.8%
- CP f.e. (%) (Uncinula necator; PESINC, 50 bunches, 14 DA-A5, BBCH 83): 38.6%
- CP f.e. (%) (Uncinula necator; PESINC, 50 bunches, 14 DA-A5, BBCH 83, second listing (r36)): 0%
- CP f.e. (%) (Uncinula necator; PESINC, 100 leaves, 14 DA-A3, BBCH 77): 34.1%
- CP f.e. (%) (Uncinula necator; PESINC, 100 leaves, 14 DA-A3, BBCH 77, second listing (r32)): 6.7%
- CP f.e. (%) (Uncinula necator; PESSEV, 50 bunches, 14 DA-A3, BBCH 77): 48.3%
- CP f.e. (%) (Uncinula necator; PESSEV, 50 bunches, 14 DA-A3, BBCH 77, second listing (r28)): 4.0%
- CP f.e. (%) (Uncinula necator; PESSEV, 50 bunches, 14 DA-A5, BBCH 83): 12.8%
- CP f.e. (%) (Uncinula necator; PESSEV, 50 bunches, 14 DA-A5, BBCH 83, second listing (r30)): 17.4%
- CP f.e. (%) (Uncinula necator; PESSEV, 100 leaves, 14 DA-A3, BBCH 77): 15.9%
- CP f.e. (%) (Uncinula necator; PESSEV, 100 leaves, 14 DA-A3, BBCH 77, second listing (r26)): 8.7%
- CP f.e. (%) (Plasmopara viticola; PESINC, location 1 (France, Negrette), 50 bunches, 1 DA-A6, BBCH 69): 32.5%
- CP f.e. (%) (Plasmopara viticola; PESINC, location 1 (France, Negrette), 50 bunches, 1 DA-A8, BBCH 75): 6.0%
- CP f.e. (%) (Plasmopara viticola; PESINC, location 1 (France, Negrette), 50 bunches, 16 DA-A9, BBCH 81): 0.0%
- CP f.e. (%) (Plasmopara viticola; PESINC, location 2 (France, Grenache), 50 bunches, 9 DA-A4, BBCH 71): 0.0%
- CP f.e. (%) (Plasmopara viticola; PESINC, location 2 (France, Grenache), 50 bunches, 9 DA-A4, BBCH 77): 0.0%
- CP f.e. (%) (Plasmopara viticola; PESINC, location 2 (France, Grenache), 100 leaves, 6 DA-A5, BBCH 77): 0.0%
- CP f.e. (%) (Plasmopara viticola; PESINC, location 2 (France, Grenache), 100 leaves, 9 DA-A4, BBCH 71): 0.8%
- CP f.e. (%) (Plasmopara viticola; PESINC, location 3 (Germany, Mueller-Thurgau), 50 bunches, 11 DA-A4, BBCH 75): 55.5%
- CP f.e. (%) (Plasmopara viticola; PESINC, location 3 (Germany, Mueller-Thurgau), 100 leaves, 7 DA-A8, BBCH 83): 0.0%
- CP f.e. (%) (Plasmopara viticola; PESINC, location 3 (Germany, Mueller-Thurgau), 100 leaves, 13 DA-A6, BBCH 83): 0.3%
- CP f.e. (%) (Plasmopara viticola; PESSEV, location 1 (France, Negrette), 50 bunches, 1 DA-A8, BBCH 75): 30.0%
- CP f.e. (%) (Plasmopara viticola; PESSEV, location 1 (France, Negrette), 50 bunches, 16 DA-A9, BBCH 81): 19.2%
- CP f.e. (%) (Plasmopara viticola; PESSEV, location 2 (France, Grenache), 50 bunches, 8 DA-A5, BBCH 77): 0.4%
- CP f.e. (%) (Plasmopara viticola; PESSEV, location 2 (France, Grenache), 50 bunches, 9 DA-A4, BBCH 71): 4.5%
- CP f.e. (%) (Plasmopara viticola; PESSEV, location 2 (France, Grenache), 50 bunches, 9 DA-A6, BBCH 79): 0.0%
- CP f.e. (%) (Plasmopara viticola; PESSEV, location 2 (France, Grenache), 100 leaves, 6 DA-A5, BBCH 77): 21.4%
- CP f.e. (%) (Plasmopara viticola; PESSEV, location 2 (France, Grenache), 100 leaves, 9 DA-A4, BBCH 71): 57.8%
- CP f.e. (%) (Plasmopara viticola; PESSEV, location 3 (Germany, Mueller-Thurgau), 50 bunches, 7 DA-A8, BBCH 83): 8.7%
- CP f.e. (%) (Plasmopara viticola; PESSEV, location 3 (Germany, Mueller-Thurgau), 50 bunches, 11 DA-A4, BBCH 75): 66.5%
- CP f.e. (%) (Plasmopara viticola; PESSEV, location 3 (Germany, Mueller-Thurgau), 50 bunches, 13 DA-A6, BBCH 83): 14.4%
- CP f.e. (%) (Plasmopara viticola; PESSEV, location 3 (Germany, Mueller-Thurgau), 100 leaves, 13 DA-A6, BBCH 83): 25.9%
